In the supplement of paper PMC9931576:
Human monoclonal antibodies against the spike receptor-binding domain (heavy:light variable regions). IC50 against pseudoviruses bearing the spike of naturally observed variants; lower = stronger; >10 µg/ml means not reached at the top dose. No active / inactive call. The stated detection limit is 0.0005 µg/ml; values near or below 0.001 µg/ml lie at the floor of the assay.

B1: BD57-0290 (protein)
chain 1: EVQLVESGGGLVKPGGSLRLSCAASGFSFSDAWMTWVRLAPGKGLEWVGHIKSKTDGGTTDHAAPVKGRFTMSRDDSKNTLYLEMNSLKTEDTAVYYCIWSDILTAYINYGMDVWGQGTTVTVSS
chain 2: DIQMTQSPSTLSASVGDRVTITCRASQSISTWLAWYQQKPGKAPELLIYKASTLKSGVPSRFSGSGSGTEFTLTISSLQPDDSATYYCQQYNSYYWTFGQGTKVEIK
B2: BD57-0291 (protein)
chain 1: QVQLVESGGGVVQPGRSLRLSCTASGFTFRSHSMNWVRQAPGKGLEWVAVLSYDGSNKYYGESVKGRFTISRDNSKNALYLQMSSLRVDDTAVYYCARDTSLSDSTSYNSPAFDSWGQGTLVTVSS
chain 2: SYVLAQPPSVSVAPGKTATITCGGDSIGSKSVHWYQQKPGQAPVLLISYDSDRPSGIPERFSGSNSGNTATLTISRIEAGDEADYYCQVWEIGPVFGTGTTVTVL
B3: BD57-0293 (protein)
chain 1: QVQLQESGPGLVKPSQTLSLTCTVSGGSISSGDHYWTWVRQHPGKGLEWLGYIHYTGSPFSNPSLKSRVTISVDTSKNQFSLMLNSVTAADTAIYYCARITLDSNDYVLLDNWGQGTLVTVSS
chain 2: DIVMTQIPLSSPVTLGQPASISCRSSQSLVHSDGNTYLSWLQQRPGQPPRLLIYKISKRFSGVPDRFSGSGAGTDFTLKISRVEAEDVGVYYCMQVTQFPWTFGQGTKVEIK
B4: BD57-0295 (protein)
chain 1: EVQLVQSGAEVKKAGESLKISCKGSGYRFTTYWIAWVRQMPGKGLEWMGIIYPGDSETRYSPSFQGRVTISADKSTNTAYLQWSSLKASDSAMYYCARPNVWFGEFPDWGQGTLVTVSS
chain 2: QSALTQPPSASGSPGQSVTISCTGTSSDVGGYNHVSWYQQHPGKAPKLIIYEVTERPSGVPDRFSGSKSGNTASLTVSGLQADDEADYYCSSYADRNTLVFGGGTRLAVL
B5: BD57-0296 (protein)
chain 1: QVQLVQSGAEVKKPGASVKVSCKVSGDTFRSYAISWVRQAPGRGLEWMGWISAYNGNTNYAQNFQGRLTLTTDTSTSTGYLELRSLRSDDTAVYYCAQPVIATTLDSWGQGTLVTVSS
chain 2: EIVLTQSPGTLSLSPGERATLSCRASQSVSTYVAWYQQKPGQAPRLLIYGASSRATGIPHRFSGSGSGTDFTLTISRLEPEDFAVYHCQQYGSSLTFGGGTKVEIK
B6: BD57-0301 (protein)
chain 1: QLVESGGGVVQPGGSLRLSCAASGFTFNDYAMHWVRQTPGKGLEWLSLISGDGVHTYYADSLKGRFTVSRDNSKDSLYLQMNSLTTEDTALYYCARAYCGDDCYPFRIRPSENAMDVWGQGTTVTVSS
chain 2: QSVLTQPPSVSGAPGQRVTISCTGSGSNIGAGYDVHWYQQLPGSAPKLLIYANTNRPSGVPDRFSGSKSGTSASLAITGLQAEDEGDYYCQSSDSDLSGGMFGGGTKLTVL

Biological target: SARS-CoV-2 Omicron BA.1 spike pseudovirus
Assay: pseudovirus neutralization IC50; higher = weaker neutralization
Procedure: (§1)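 Single-round VSV luciferase pseudovirus mixed with antibody dilutions for 1 h and put on Huh-7 cells for about a day; IC50 from the dose curve.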

Binder	pseudovirus neutralization IC50 [µg/mL]
B1	1.77
B2	2.31
B3	> 10
B4	0.426
B5	> 10
B6	0.249

Biological target: SARS-CoV-2 Omicron BA.2 spike pseudovirus
Assay: as above
Procedure: as §1

Binder	pseudovirus neutralization IC50 [µg/mL]
B1	3.69
B2	5.78
B3	0.122
B4	1.37
B5	0.0437
B6	> 10

Biological target: SARS-CoV-2 Omicron BA.2.75 spike pseudovirus
Assay: as above
Procedure: as §1

Binder	pseudovirus neutralization IC50 [µg/mL]
B1	3.12
B2	6.18
B3	> 10
B4	1.34
B5	> 10
B6	4.48

Biological target: SARS-CoV-2 Omicron BA.5 spike pseudovirus
Assay: as above
Procedure: as §1

Binder	pseudovirus neutralization IC50 [µg/mL]
B1	3.6
B2	3.19
B3	0.0624
B4	0.735
B5	0.0265
B6	5.07

Biological target: SARS-CoV-2 Omicron BQ.1.1 spike pseudovirus
Assay: as above
Procedure: as §1

Binder	pseudovirus neutralization IC50 [µg/mL]
B1	7.78
B2	> 10
B3	> 10
B4	1.2
B5	> 10
B6	> 10

Biological target: SARS-CoV-2 Omicron XBB spike pseudovirus
Assay: as above
Procedure: as §1

Binder	pseudovirus neutralization IC50 [µg/mL]
B1	3.98
B2	2.82
B3	> 10
B4	1.02
B5	> 10
B6	> 10

Biological target: SARS-CoV-2 early D614G spike pseudovirus
Assay: as above
Procedure: as §1

Binder	pseudovirus neutralization IC50 [µg/mL]
B1	4.41
B2	> 10
B3	0.00127
B4	1.31
B5	0.00141
B6	0.0715
